Source: PubChem BioAssay AID624099 (ICCB-Longwood, 2012)
Assay: 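Knock-downs relieving repression by E2 of an HPV18 LCR luciferase reporter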 (primary screen). Cells: human C33A cervical carcinoma cells (HPV-negative) stably expressing BPV1 E2 and an HPV18 LCR luciferase reporter. Knock-down reagent: siRNA pool against human genes, 40 nM. Time to read-out: 72 h. Measurement: 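HPV18 LCR reporter light per well, converted to plate-wise z-scores that exclude control wells, and averaged over triplicate plates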. Direction: mean z-score and z-score: higher = stronger reporter signal, weaker E2 silencing. Rule for the call: 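Hit if mean z-score reaches 2 and two or more of three replicate z-scores also reach 2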.
In all, the deposit lists about 21,000 reagents; below is a part drawn at random. 497 of them (2.4%) count as active. 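Higher z means weaker E2 silencing; only reporter increases were scored, and knock-downs that hurt cell survival may mask genuine repressor factors.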 No sequences are given here.

target gene	mean z-score	z-score, replicate A	z-score, replicate B	z-score, replicate C	activity call
LIPC (GeneID 3990)	-0.06	0.1	-0.23	-0.05	inactive
FAM161A (GeneID 84140)	1.23	1.2	1.26	1.23	inactive
RPS2P40 (GeneID 91561)	-1.48	-0.37	-1.72	-2.34	inactive
ARHGAP44 (GeneID 9912)	0.72	0.82	0.93	0.41	inactive
ARAP2-AS1 (GeneID 439933)	0.37	0.36	0.61	0.14	inactive
UBAP1 (GeneID 51271)	-0.6	-0.43	-0.55	-0.82	inactive
RNFT1 (GeneID 51136)	-0.23	-0.05	-0.54	-0.11	inactive
PRNP (GeneID 5621)	0.63	0.82	0.77	0.28	inactive
PPP1R37 (GeneID 284352)	-0.64	-0.35	-1.05	-0.5	inactive
NEMP1 (GeneID 23306)	-0.76	-0.9	-1.06	-0.33	inactive
TMEM151A (GeneID 256472)	0.45	0.49	0.39	0.47	inactive
PTPN6 (GeneID 5777)	1.54	1.01	1.95	1.67	inactive
LOC387709 (retired record) (GeneID 387709)	-0.73	-1.03	-1.01	-0.16	inactive
DMTN (GeneID 2039)	0.35	0.32	0.4	0.31	inactive
WFDC2 (GeneID 10406)	-0.78	-0.96	-0.69	-0.68	inactive

2 entries already listed, arranged by “z-score, replicate B”, lowest first.
target gene	mean z-score	z-score, replicate A	z-score, replicate B	z-score, replicate C	activity call
RNFT1 (GeneID 51136)	-0.23	-0.05	-0.54	-0.11	inactive
PRNP (GeneID 5621)	0.63	0.82	0.77	0.28	inactive

The list goes on:
target gene	mean z-score	z-score, replicate A	z-score, replicate B	z-score, replicate C	activity call
MANF (GeneID 7873)	-0.73	-0.8	-0.67	-0.71	inactive
OLFML3 (GeneID 56944)	0.5	1.67	-0.08	-0.07	inactive
DHDH (GeneID 27294)	0.33	0.16	0.19	0.62	inactive
CDH2 (GeneID 1000)	-0.16	-0.54	0.27	-0.22	inactive
SYNE2 (GeneID 23224)	-0.25	0.05	-0.64	-0.16	inactive
CXCL13 (GeneID 10563)	1	0.83	1.03	1.14	inactive
HDAC8 (GeneID 55869)	-0.22	-0.01	-0.15	-0.51	inactive
TRIM48 (GeneID 79097)	-0.65	-1	-0.47	-0.48	inactive
